# Assay results published in patent US20240043505A1.
# Target: SARS-CoV-2 RBD E484K mutant (SARS-CoV-2), P0DTC2
# Details: remark: other sources report otherwise
binder,measurement,value
Nb20 (VHH) VHH: QVQLVESGGGLVQAGGSLRLSCAVSGAGAHRVGWFRRAPGKEREFVAAIGASGGMTNYLDSVKGRFTISRDNAKNTIYLQMNSLKPQDTAVYYCAARDIETAEYIYWGQGTQVTVSS,binding affinity fold change relative to RBD WT,< -1000 fold
